Laboratory results from PubChem BioAssay AID504690 (Sanford-Burnham Center for Chemical Genomics, 2011).
This is a selection; strong and weak results do not stand in their true shares. Activity calls are given as the source filed them.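 Rule for the calls: active = inhibition reaching at least a set limit at 20 µM in the primary screen (cut at about 59% in these data); inactive = the rest.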

Test system: glucose-6-phosphate dehydrogenase-6-phosphogluconolactonase (Plasmodium falciparum 3D7)
Assay: PfG6PD enzyme inhibitors, primary screen, biochemical, fluorescence intensity, uHTS (AID 504690);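 note: 0% = DMSO wells with substrate and 100% = DMSO wells lacking glucose-6-phosphate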
Conditions: PfGluPho enzyme, NADPH resazurin-diaphorase fluorescence; at 20 µM; stronger effect = higher value

Structure (SMILES) | inhibition
Cc1c2c(nc3ccccc13)SC(C(Cl)Cl)C2 (stereo not given) | inactive: -10.9%
O=C(OC1CN2CCC1CC2)C12CC3CC(CC(C3)C1)C2 (stereo not given) | inactive: 5.48%
Cc1cc(=O)[nH]c(N[N+](=O)[O-])n1 | inactive: -14.8%
O=P1(N(CCCl)CCCl)Nc2ccccc2N1 | inactive: -7.99%
O=P1(N(CCCl)CCCl)OCCCN1CCCl (stereo not given) | inactive: -1.28%
COc1ccc2nc(NP(=O)(c3ccccc3)c3ccccc3)sc2c1 | inactive: -12.7%
COc1cc(I)ccc1[As](=O)(O)O | inactive: 0.57%
O=[N+]([O-])c1cc(Oc2ccc([N+](=O)[O-])cc2C(F)(F)F)cc([N+](=O)[O-])c1 | inactive: 11.7%
COc1ccc(N/C(=N/P(=O)(N2CCOCC2)N2CCOCC2)N2CCOCC2)cc1 | inactive: -1.4%
O=[As](O)(c1ccc(O)cc1)c1ccccc1O | inactive: -6.89%
C[As](=O)(O)c1cccc(C(=O)O)c1 | inactive: -6.17%
COc1cc(C(=O)NCC2(N3CCOCC3)CCCCC2)ccc1OCC(C)C | inactive: -8.41%
O=[N+]([O-])c1ccc(-c2cc([N+](=O)[O-])c(O)c([N+](=O)[O-])c2)cc1 | inactive: 41.9%
Cc1ccc(OP(=O)(Nc2ccc([N+](=O)[O-])cn2)Oc2ccc(C)cc2)cc1 | inactive: -11.7%
Cc1ccc2nc3c(c(C)c2c1)CC(C(Cl)Cl)S3 (stereo not given) | inactive: -10.5%
ClCCSc1nnc(-c2cccnc2)o1 | inactive: 2.05%
CC(C)c1ccc(OP(=O)(Nc2ccccn2)Oc2ccccc2F)cc1 (stereo not given) | inactive: 15.5%
COC(=O)C1(C)COP(=O)(N2CCCCCC2)OC1 (stereo not given) | inactive: -7.43%
O=C(OC1CN2CCC1CC2)c1cccc2[nH]cnc12 (stereo not given) | inactive: -13.8%
CCN(CC)C(=S)SC(NC=O)C(Cl)(Cl)Cl (stereo not given) | inactive: 50.6%
CC(C)NC(=O)NP(=O)(Oc1ccccc1)Oc1ccccc1 | inactive: -19.8%
O=[N+]([O-])c1cc([N+](=O)[O-])c(-c2ccn[nH]2)s1 | inactive: 38.5%
CCOC(=O)Nc1ccc([As](=O)(O)O)c(O)c1 | inactive: -30.4%
O=C(O)C(O)c1ccc(N(CCCl)CCCl)cc1 (stereo not given) | inactive: 0.56%
CC1CCNP(=O)(N(CCCl)CCCl)O1 (stereo not given) | inactive: -1.11%

Structure (SMILES) | inhibition
COP(=O)(OC)N1CC1c1ccccc1 (stereo not given) | inactive: -2.83%
CCCCOc1ccc(C(=O)NCC2(N3CCCCC3)CCCCC2)cc1OC | inactive: -1.73%
Cc1cc(SC(NC(=O)c2ccccc2)C(Cl)(Cl)Cl)nc(C(C)C)n1 (stereo not given) | inactive: 43.5%
CCOC(=O)Nc1cccc([As](=O)(O)O)c1 | inactive: -2.92%
O=P(Nc1ccccn1)(c1cccc2ccccc12)c1cccc2ccccc12 | inactive: -2.07%
Cc1cc(SC(NC=O)C(Cl)(Cl)Cl)ncn1 (stereo not given) | inactive: 20.1%
O=[N+]([O-])c1ccc(Nc2ccc(Oc3ccc([N+](=O)[O-])cc3[N+](=O)[O-])cc2)c([N+](=O)[O-])c1 | inactive: 11.6%
COP1(=S)c2c(C)nn(CCC#N)c2N=C(c2ccc(F)cc2)N1C (stereo not given) | inactive: 1.09%
O=C(O)C(=O)c1ccc(N(CCCl)CCCl)cc1 | inactive: 2.52%
O=C(Nc1ccncc1[N+](=O)[O-])c1ccc([N+](=O)[O-])cc1[N+](=O)[O-] | inactive: 0.42%
O=C(OC1CN2CCC1CC2)c1cccc([N+](=O)[O-])c1 (stereo not given) | inactive: 6.11%
CSc1ccc(Nc2c([N+](=O)[O-])cc([N+](=O)[O-])cc2[N+](=O)[O-])cc1 | inactive: 3.71%
CCOC(=O)c1ccc(NC(=O)C(C)(CCl)SC)cc1 (stereo not given) | inactive: -3.59%
CCC(C)N(CC(C)C)C(=S)SC(NC(C)=O)C(Cl)(Cl)Cl (stereo not given) | inactive: 12%
O=P1(Nc2ccccn2)COc2ccccc2OC1 | inactive: -19.3%
CCC1=CC2Cc3nc4ccc(Cl)cc4c(N)c3C(C1)C2 (stereo not given) | inactive: 14.6%
CCOP(=O)(NC(=NC(C)c1ccccc1)NC(C)c1ccccc1)OCC (stereo not given) | inactive: -2.43%
CN(CCCl)Cc1cc(Cl)c(NC2=NCCN2)c(Cl)c1 | inactive: 6.71%
CCOP(=O)(Nc1ccc(C)cn1)OCC | inactive: -6.77%
O=P1(N(CCCl)CCCl)NCCC(C(F)(F)F)O1 (stereo not given) | inactive: 0.58%
Clc1n[nH]nc1-c1nn[nH][15n]1 | inactive: -5.59%
CC(C)(C)C(=O)NC(Sc1ncccn1)C(Cl)(Cl)Cl (stereo not given) | inactive: 0.39%
COc1ccccc1CNC(=O)COC(=O)C(O)(c1ccccc1)c1ccccc1 | inactive: 7.76%
CC(C)/C=N\N=C(\N)N[N+](=O)[O-] | inactive: -17.5%
CN(C(=O)Cc1ccc(Cl)c(Cl)c1)[C@@H]1CCCC[C@H]1N1CCCC1 | inactive: -9.01%

Structure (SMILES) | inhibition
CC1(CBr)Cn2c(nc3ccccc3c2=O)S1 (stereo not given) | inactive: -9.6%
Cc1nn(-c2ccccc2)c2c1P(=O)(N1CCOCC1)N(C)C(c1ccccc1)=N2 (stereo not given) | inactive: -3.89%
CC1CCC(C(C)C)C(OP(=O)(Nc2ccccn2)c2ccccc2)C1 (stereo not given) | inactive: 0.53%
Cc1ccc(C(=O)OC2CN3CCC2CC3)cc1 (stereo not given) | inactive: -7.78%
CN(C)C1(CNC(=O)c2ccc(S(C)(=O)=O)cc2)CCCCC1 | inactive: -0.05%
O=C(/C=C/c1ccccc1)OC1CN2CCC1CC2 (stereo not given) | inactive: -4.2%
CCCC1OP(=O)(Nc2ccccc2)OCC1CC (stereo not given) | inactive: -5.07%
O=P1(Nc2ncccn2)COc2ccccc2OC1 | inactive: -9.93%
Nc1cccc([As](=O)(O)c2ccccc2)c1 | inactive: -30.2%
O=P1(Nc2ccc(Br)cn2)COc2ccccc2OC1 | inactive: -7.12%
NS(=O)(=O)c1cccc(NC(=O)COC(=O)C(O)(c2ccccc2)c2ccccc2)c1 | inactive: -10.1%
O=[As](O)(c1cccs1)c1cccs1 | inactive: -13.9%
Cc1ccc(OCC(=O)OC2CN3CCC2CC3)cc1 (stereo not given) | inactive: -15.3%
CCOP1(=S)c2c(C)nn(CCC#N)c2N=C(c2ccccc2F)N1C (stereo not given) | inactive: -1.76%
O=P(Nc1nccs1)(c1ccccc1)c1nc2ccccc2s1 (stereo not given) | active: 80.2%
O=P(Nc1nccs1)(Oc1ccccc1)Oc1ccccc1 | inactive: -18.6%
CS(=O)(=O)c1cc([N+](=O)[O-])c2no[n+]([O-])c2c1 | active: 114%
Nc1ccccc1[As](=O)(O)c1ccccc1 | inactive: -14.8%
O=C(O)COc1ccc([As](=O)(O)O)cc1[N+](=O)[O-] | inactive: -1.63%
NC(=O)Nc1ccc([As](=O)(O)O)cc1 | inactive: -0.06%
N#CCCN(C(=O)COC(=O)C(O)(c1ccccc1)c1ccccc1)c1ccc(F)cc1 | inactive: -8.88%
CN(C(=O)Cc1ccccc1)[C@@H]1CC[C@]2(CCCO2)C[C@H]1N1CCCC1 | inactive: 3.91%
CCOP1(=S)c2c(C)nn(CCC#N)c2N=C(c2ccc(F)cc2)N1C (stereo not given) | inactive: -7.52%
CN(C)C(=O)c1cc([N+](=O)[O-])cc2c1-c1c(cc([N+](=O)[O-])cc1[N+](=O)[O-])C2=O | active: 102%
O=[N+]([O-])c1ccc2c(c1)nnn2O | inactive: -3.78%

Structure (SMILES) | inhibition
CN(C(=O)Cc1ccc(Cl)c(Cl)c1)[C@H]1CC[C@@]2(CCCO2)C[C@@H]1N1CCCC1 | inactive: 13.7%
O=C(OC1CN2CCC1CC2)c1ccc(Cl)cc1 (stereo not given) | inactive: -10.9%
COc1cc(C(=O)NCC2(N3CCOCC3)CCCCC2)cc(Cl)c1OC(C)C | inactive: 37.8%
O=[As](O)(O)c1cccnc1 | inactive: 2.13%
CS(=O)(=O)c1ccc(Cl)c(NC(=O)COC(=O)C(O)(c2ccccc2)c2ccccc2)c1 | inactive: 14%
O=[As](O)(c1cccc(O)c1)c1cccc(O)c1 | inactive: 0.19%
Cc1cccc(OCC(=O)OC2CN3CCC2CC3)c1 (stereo not given) | inactive: -7.35%
Nc1cccc2c([As](=O)(O)O)cccc12 | inactive: 38.6%
Cc1ccc(NCCc2c([N+](=O)[O-])cc([N+](=O)[O-])cc2[N+](=O)[O-])cc1 | inactive: 25.9%
CCCOP(=S)(Nc1nc(N)cc(=O)[nH]1)OCCC | inactive: -3.55%
COc1cc(C2NCCC3(OCCO3)C2(C)C)cc(OC)c1OC (stereo not given) | inactive: -19.2%
CCOP(=O)(Nc1cccc2ccccc12)OCC | inactive: -0.72%
O=P1(Nc2nc3ccc(Cl)cc3s2)COc2ccccc2O1 (stereo not given) | inactive: -8.18%
CCOc1ccc(C2=NCC(CBr)S2)cc1 (stereo not given) | inactive: -0.24%
CC(C)(C)C(=O)NC(Sc1ccccc1)C(Cl)(Cl)Cl (stereo not given) | inactive: 14.6%
CCc1cc(O)c([N+](=O)[O-])c(C)c1[N+](=O)[O-] | inactive: 7.31%
Cc1ccccc1CN(C)C(=O)COC(=O)C(O)(c1ccccc1)c1ccccc1 | inactive: -13.9%
C[C@@H]1C=CCP(=O)(Oc2ccccc2)O1 (stereo not given in full) | inactive: 1.6%
C[C@H]1OP(=O)(Oc2ccccc2)C[C@@H]2O[C@@H]21 (stereo not given in full) | inactive: -8.1%
N#C/C(=C\c1ccc(N(CCBr)CCBr)cc1)C(N)=O | inactive: 27.6%
CC(=O)c1ccc(N2CC2c2ccncc2)cc1 (stereo not given) | inactive: 3.16%
COC(=O)C1(C)COP(=O)(NCc2ccccc2)OC1 (stereo not given) | inactive: -13%
CC(=O)Nc1ccc([As](=O)(O)O)c(O)c1 | inactive: -18%
CC(=O)Nc1ccc(Oc2c([N+](=O)[O-])cc([N+](=O)[O-])cc2[N+](=O)[O-])cc1 | inactive: 6.46%
c1ccc(-c2nn[nH]n2)c(-c2nn[nH]n2)c1 | inactive: -17.6%
